According to US20230364121A1 (priority 2020, published 2023):

System: human coronavirus alpha-229E
Format: cell-based, HCoV-229E

CNc1nc(N)nc2c1ncn2[C@@H]1O[C@H](CO[P@@](=O)(N[C@@H](C)C(=O)OC(C)C)Oc2ccccc2)[C@@H](O)[C@@]1(C)F [Compound 1A]
Neutral Red SI (CC50/EC50): >50 | Visual SI (CC50/EC50): >50 | VYR SI (CC50/EC90): >70
